Values of other authors as cited in paper PMC10531517, “Rational Design of Novel Peptidomimetics against Influenza A Virus: Biological and Computational Studies” (International Journal of Molecular Sciences, 2023).

Test system: A/Parma/24/09 H1N1 virus
Design: method as in Scala et al. (2017) [23]
Details: reference peptides; ref Scala et al. (2017) [23]; cited from earlier work

Question: Which “SI (ratio of CC50 and EC50)” value does the source give for SKHS [Peptide 2] here?
Answer: The value was >5.2 × 10^8.

Question: Which “SI (ratio of CC50 and EC50)” value does the source give for SLDC [Peptide 1] here?
Answer: The value was >5.4 × 10^6.
